Laboratory results: US8178523B2, “Compounds for the treatment of hepatitis C” (Bristol-Myers Squibb Company, priority 2008, dated 2012)

Amino acid sequences for entries named in this document (tags omitted). Residues count along the entry.
UniProt Q9WMX2, 2420-2992 limits assumed: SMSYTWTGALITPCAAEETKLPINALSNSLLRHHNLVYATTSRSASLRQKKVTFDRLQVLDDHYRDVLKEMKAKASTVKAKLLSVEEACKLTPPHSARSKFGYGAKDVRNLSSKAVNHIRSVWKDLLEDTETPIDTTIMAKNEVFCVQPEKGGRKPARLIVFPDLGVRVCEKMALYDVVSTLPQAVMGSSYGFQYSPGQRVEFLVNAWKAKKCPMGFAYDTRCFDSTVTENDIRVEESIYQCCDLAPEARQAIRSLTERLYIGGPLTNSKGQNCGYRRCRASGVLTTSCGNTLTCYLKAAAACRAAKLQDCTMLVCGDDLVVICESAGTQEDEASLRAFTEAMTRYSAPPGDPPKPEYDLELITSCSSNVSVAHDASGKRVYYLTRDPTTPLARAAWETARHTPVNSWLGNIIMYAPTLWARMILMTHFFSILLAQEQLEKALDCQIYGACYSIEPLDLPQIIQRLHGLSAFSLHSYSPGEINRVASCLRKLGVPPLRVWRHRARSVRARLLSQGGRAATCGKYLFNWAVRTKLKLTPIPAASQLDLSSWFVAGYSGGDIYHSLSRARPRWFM

Assays:
HCV replicon cells = assay: HCV replicon FRET / luciferase assay; format: cell-based; settings: 50% reduction in FRET or luciferase activity, numeric values
Procedure: FRET Assay Preparation. The HCV FRET screening assay was performed in 96-well cell culture plates. The FRET peptide (Anaspec, Inc.) (Taliani et al., Anal. Biochem. 1996, 240, 60-67) contains a fluorescence donor, EDANS, near one end of the peptide and an acceptor, DABCYL, near the other end. The fluorescence of the peptide is quenched by […] resonance energy transfer (RET) between the donor and the acceptor, but as the NS3 protease cleaves the peptide the products are released from RET quenching and the fluorescence of the donor becomes apparent. […]
Assays. […] After reading in a Cytoflour 4000 instrument (PE Biosystems), plates were rinsed with PBS and then used for FRET assay by the addition of 30 ul of the FRET peptide assay reagent described above (FRET Assay Preparation) per well. The plate was then placed into the Cytoflour 4000 instrument which had been set to 340 excite/490 emission, automatic mode for up to 20 cycles and the plate read in a kinetic mode. Typically, the signal to noise using an endpoint analysis after the reads was at least three-fold. Alternatively, after Alamar blue reading, plates were rinsed with PBS, then used for luciferase assay using the Promega Dual-Glo Luciferase Assay System or the Promega EnduRen Live Cell Substrate assay. […]

HCV NS5B RdRp = HCV NS5B RdRp (Hepatitis C virus genotype 1b, UniProt Q9WMX2); assay: HCV NS5B RdRp enzyme assay; format: biochemical; settings: HCV NS5B genotype 1b; standard or modified RdRp assay not given; numeric values
Procedure: HCV NS5B RdRp cloning, expression, and purification. The cDNA encoding the NS5B protein of HCV, genotype 1b, was cloned into the pET21a expression vector. The protein was expressed with an 18 amino acid C-terminal truncation to enhance the solubility. The E. coli competent cell line BL21(DE3) was used for expression of the protein. Cultures were grown at 37° C. for ˜4 hours until the cultures reached an optical density of 2.0 at 600 nm. The cultures were cooled to 20° C. and induced with 1 mM […]. Fresh ampicillin was added to a final concentration of 50 μg/ml and the cells were grown overnight at 20° C.
Cell pellets (3 L) were lysed for purification to yield 15-24 mgs of purified NS5B. The lysis buffer consisted of 20 mM Tris-HCl, pH 7.4, 500 mM NaCl, 0.5% triton X-100, 1 mM DTT, 1 mM EDTA, 20% glycerol, 0.5 mg/ml lysozyme, 10 mM MgCl2, 15 ug/ml deoxyribonuclease I, and Complete TM protease inhibitor tablets (Roche). After addition of the lysis buffer, frozen cell pellets were resuspended using a tissue homogenizer. To reduce the viscosity of the sample, aliquots of the lysate were sonicated on ice using a microtip attached to a Branson sonicator. […]
Standard HCV NS5B RdRp enzyme assay. […] Plates were read on a Packard Top Count NXT after >1 hr incubation at room temperature. […]
IC50 values for compounds were determined using seven different [I]. […]

For `COc1ccc2c(c1)C1CC1(C(=O)N1CCC(n3c(=O)[nH]c4ccccc43)CC1)Cn1c-2c(C2CCCCC2)c2ccc(C(=O)NS(=O)(=O)N(C)C)cc21` (centres unmarked), the EC50 (HCV replicon cells) was 430 nM and the IC50 (HCV NS5B RdRp) was 110 nM.
